Reference: article PMC10387993, “New pyrimidine-N-β-D-glucosides: synthesis, biological evaluation, and molecular docking investigations” (Turkish Journal of Chemistry, 2023)

Tested on: calf thymus DNA (CT-DNA)
Assay: DNA binding study, UV-Visible absorption titration
Conditions: UV-Vis, 25 μM compound, CT-DNA 6.5–800 μM
Description: The vast majority of anticancer agents used in pharmaceutical chemistry act on functional macromolecules such as DNA and proteins. Given this well-known fact, the relationship between newly developed anticancer drug candidates and macromolecules should be studied in detail. The interaction of molecules with DNA leads to significant changes in the helical structure of DNA, which can be observed by spectrophotometric techniques. […] Also, the red or blue shift in the absorption bands of the compounds can be an indication of the stability of the compound and the DNA structure. The DNA/BSA binding properties of the new chemicals synthesized by our group were determined using a UV-Vis spectrophotometer. The interactions of these compounds with DNA were as follows. In the spectra obtained by UV-Vis studies of the compounds, a single maximum absorption peak was observed and this peak had no clear bathochromic or hypsochromic effect. […]. […] The physical interactions of our newly synthesized compounds with BSA caused the formation of the spectral bands described below. […]. […]. Kb is the binding constant related to the complex to DNA and can be calculated algebraically from the slope of the line drawn between [DNA] / (ɛa-ɛf) and [DNA]. […].
To find the interaction of the compounds with calf thymus DNA and to calculate the binding constants (Kb) UV–Visible absorption spectroscopy technique was used. A 2.5-mg calf thymus DNA was dissolved in 10.0 mL Tris–HCl buffer (20 mM Tris–HCl, 20 mM NaCl, pH 7.0) and stabile during one week in the refrigerator. […]. After dissolving the calf thymus DNA fibers in Tris–HCl buffer, the purity of this solution was checked from the absorbance ratio A260/A280. […]. These compounds were diluted with Tris–HCl buffer to obtain 25 μM concentrations. Test compounds in the solutions were incubated at room temperature for nearly 30 min before the process. […] Absorption spectra were recorded by using 1-cm-path quartz cuvettes at room temperature. […]

SMILES: CC(=O)OC[C@H]1O[C@@H](Nc2nc(-c3ccc(C)cc3)cc(-c3ccccn3)n2)[C@H](OC(C)=O)[C@@H](OC(C)=O)[C@@H]1OC(C)=O [Compound 16, 2,3,4,6-tetra-O-acetyl-N-[4-(4-methylphenyl)-6-pyridin-2-ylpyrimidin-2-yl]-β-D-glucopyranosylamine]
- change of absorption intensity on adding increasing amounts of CT-DNA: hypochromic effect

SMILES: Cc1ccc(-c2cc(-c3ccncc3)nc(N[C@@H]3O[C@H](CO)[C@@H](O)[C@H](O)[C@H]3O)n2)cc1 [Compound 9, N-[4-(4-methylphenyl)-6-pyridin-4-ylpyrimidin-2-yl]-β-D-glucopyranosylamine]
- change of absorption intensity on adding increasing amounts of CT-DNA: hyperchromic effect

SMILES: Cc1ccccc1-c1cc(-c2ccncc2)nc(N[C@@H]2O[C@H](CO)[C@@H](O)[C@H](O)[C@H]2O)n1 [Compound 3, N-[4-(2-methylphenyl)-6-pyridin-4-ylpyrimidin-2-yl]-β-D-glucopyranosylamine]
- change of absorption intensity on adding increasing amounts of CT-DNA: hyperchromic effect
